From publication PMC7612645 come the findings set out here.

Sequences of proteins named here, by UniProt entry; tags and fusion partners are left off.
UniProt P03146, whole entry: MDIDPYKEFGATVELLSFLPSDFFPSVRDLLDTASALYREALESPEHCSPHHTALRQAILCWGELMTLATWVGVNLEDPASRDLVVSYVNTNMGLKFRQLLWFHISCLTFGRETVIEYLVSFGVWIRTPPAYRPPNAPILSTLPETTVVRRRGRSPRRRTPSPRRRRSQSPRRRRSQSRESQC

For this series, the target named is HBV core protein (Cp) dimer (Hepatitis B virus) (UniProt P03146). As to the kind of experiment: fluorescence anisotropy. The conditions noted are these: 10 uM compound #66, up to 1.2 uM Cp, 15 nM RNA; 20 mM HEPES pH 7.5, 250 mM NaCl, 5 mM DTT, DMSO +/- compound, <0.15 M GuHCl, room temperature; Cp titrated in 10 steps to 1.2 uM; recombinant protein; label: 5' AlexaFluor (SDP ester); scale: normalized anisotropy change vs no compound.

The exact form of at least one protein or probe is not confirmed. Whether high values mean tight binding is not given here for every scale.

As for “GGGUUUUGGGUUUGUUUAAAGACUGGGAGGAGUUGGGGGAGGAGCCC [PS1 (NC_003977.1)]”, the binding signal was 0.938.
